## Screening data, single-dose tests

Measurements from “University of Dundee, Small-Polar-MMV Screening Library” (2021), ChEMBL document CHEMBL3988442.

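Growth of Mycobacterium tuberculosis over 3 days (7H9 medium with glucose and tyloxapol); the read-out is not stated. Tested at 500 µM. The record gives no direction; compounds that gave an IC50 in retests scored well above the rest, so higher reads as more growth inhibition. About 18,000 compounds were tested under these conditions; 7.9% (about 1,400) showed 50% or more at least once.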

Values are the deposited “Percent Effect”, in %.
The record does not define 0% and 100%; most values in the screen are far below 50% and negative numbers occur (in some assays of this library far below -100).
Many other results are left out here, so strong results are more common than in the screen.

{"smiles": "O=C(NCC1CCN(C2CC2)C1)Nc1ccccn1", "stereo": "stereo not given", "percent effect": 19.7}
{"smiles": "CC1(C)CNC(=O)CN1C(=O)CC(F)(F)F", "percent effect": 15.65}
{"smiles": "CC(C)(C)OC(=O)n1cc(N)cn1", "percent effect": 8.137}
{"smiles": "COCCNc1ccc(C#N)cc1", "percent effect": 49.74}
{"smiles": "Cc1nc(NC(=O)CN2CCn3ccnc3C2)sc1C", "percent effect": 18.59}
{"smiles": "NC(=O)C(c1ccc(Cl)cc1)N1CCNCC1", "stereo": "stereo not given", "percent effect": -5.591}
{"smiles": "COc1ccc(CN)cc1OC(F)F", "percent effect": 41.01}
{"smiles": "CC[C@H](C)[C@H](N)C(=O)NCCc1noc(C(C)C)n1", "percent effect": 10.18}
{"smiles": "CC(=O)NCCC(=O)N1c2ccccc2CC1C", "stereo": "stereo not given", "percent effect": -6.434}
{"smiles": "COC(=O)c1oc(CSc2cnn[nH]2)cc1C", "percent effect": 36.84}
{"smiles": "N#Cc1nc(-c2ccccc2)oc1NCCCO", "percent effect": 53.16}
{"smiles": "O=C1NC(=O)c2cc(F)c(F)cc21", "percent effect": 1.061}
{"smiles": "NCC(CO)Cc1cccc(Br)c1", "stereo": "stereo not given", "percent effect": 49.36}
{"smiles": "CC(CCc1ccc(O)cc1)NCCN1CCOCC1", "stereo": "stereo not given", "percent effect": -4.629}
{"smiles": "NCCC(=O)N1CCN(c2ccccn2)CC1", "percent effect": 18.53}
{"smiles": "CCOC(=O)CNC(=O)NCCc1ccc(OC)cc1", "percent effect": 48.1}
{"smiles": "COCCNC(=O)c1cc(-c2cccc(O)c2)on1", "percent effect": 61}
{"smiles": "CC(C(=O)N(C)Cc1cc(Br)cs1)n1cncn1", "stereo": "stereo not given", "percent effect": 36.82}
{"smiles": "C=C(C(=O)OC)C(O)c1ccc(F)c(F)c1", "stereo": "stereo not given", "percent effect": 48.9}
{"smiles": "Cc1noc(CSCC(=O)NCc2ccccc2F)n1", "percent effect": 38.74}
{"smiles": "CN(C)S(=O)(=O)NCCNc1cccc(Br)c1", "percent effect": 82.42}
{"smiles": "CNC(=O)C(C)(C)Oc1cccc(Cl)c1", "percent effect": 68.29}
{"smiles": "N[C@@H]1CCN(C(=O)CCSCc2ccccc2)C[C@H]1O", "percent effect": 28.64}
{"smiles": "Cn1ccnc(Sc2nnnn2CC2CCCO2)c1=O", "stereo": "stereo not given", "percent effect": 14.99}
{"smiles": "Cc1onc(N)c1S(=O)(=O)NCc1ccccc1Cl", "percent effect": 52.91}
{"smiles": "O=C1C(N2CCNCC2)CCCN1CC(F)(F)F", "stereo": "stereo not given", "percent effect": -4.578}
{"smiles": "CCCn1nnnc1NCc1ccc(C)s1", "percent effect": 71.74}
{"smiles": "CCC(C)NC(=O)COC(=O)c1c(C)nsc1NC", "stereo": "stereo not given", "percent effect": 1.34}
{"smiles": "CC(Cn1ccnc1)NC(=O)Cn1cc(Br)ccc1=O", "stereo": "stereo not given", "percent effect": -7.602}
{"smiles": "Oc1ccnc(C2CCC2)n1", "percent effect": -6.819}
{"smiles": "CC(=O)NC1CCN(Cc2cnc(N(C)C)nc2)C1", "stereo": "stereo not given", "percent effect": -1.404}
{"smiles": "Cc1csc(NC(=O)NC(CO)CC(C)C)n1", "stereo": "stereo not given", "percent effect": 66.92}
{"smiles": "COc1ccc(OC)c(NC(=O)C(C)C)c1", "percent effect": 46.61}
{"smiles": "CCc1nc(CN[C@H](CO)C(C)C)no1", "percent effect": 6.712}
{"smiles": "COCC(O)CNc1ncnc2c1CCNCC2", "stereo": "stereo not given", "percent effect": -9.969}
{"smiles": "NCc1coc(-c2cccs2)n1", "percent effect": 80.76}
{"smiles": "CC(N)C(=O)N1CCN(c2ccc(C(N)=O)cc2)CC1", "stereo": "stereo not given", "percent effect": 8.365}
{"smiles": "N#Cc1cc(F)cc(CO)c1", "percent effect": 5.905}
{"smiles": "CCc1cnc(N2CCNCC2)s1", "percent effect": 21.44}
{"smiles": "NC1CCCc2sccc21", "stereo": "stereo not given", "percent effect": 9.066}
{"smiles": "CC(C)n1cnnc1CC1CCCNC1", "stereo": "stereo not given", "percent effect": -7.577}
{"smiles": "O=C1CSc2ccc(C(=O)Nc3nccs3)cc2N1", "percent effect": 6.983}
{"smiles": "CNCc1nc(-c2ccc(F)cc2)no1", "percent effect": 29.98}
{"smiles": "CC(=O)c1ccc(Cl)c(Cl)c1OCC(=O)N(C)C", "percent effect": 15.11}
{"smiles": "CNC(C)c1cccnc1", "stereo": "stereo not given", "percent effect": 7.834}
{"smiles": "CCn1nnc2cc(C(=O)NCCCC#N)ccc21", "percent effect": 8.233}
{"smiles": "COc1ccnc(CN2CCCC2CSC)c1OC", "stereo": "stereo not given", "percent effect": 55.01}

For reference, 5 entries once more:

| SMILES | percent effect |
|---|---|
| `CNC(C)c1cccnc1` (stereo not given) | 7.834 |
| `CC1(C)CNC(=O)CN1C(=O)CC(F)(F)F` | 15.65 |
| `COCCNc1ccc(C#N)cc1` | 49.74 |
| `CC(=O)NCCC(=O)N1c2ccccc2CC1C` (stereo not given) | -6.434 |
| `CCc1cnc(N2CCNCC2)s1` | 21.44 |